From publication PMC6265350 come the findings set out here.

Series [1] has as its target T1, MtrA~P (UniProt P9WGM7).
T1 sequence: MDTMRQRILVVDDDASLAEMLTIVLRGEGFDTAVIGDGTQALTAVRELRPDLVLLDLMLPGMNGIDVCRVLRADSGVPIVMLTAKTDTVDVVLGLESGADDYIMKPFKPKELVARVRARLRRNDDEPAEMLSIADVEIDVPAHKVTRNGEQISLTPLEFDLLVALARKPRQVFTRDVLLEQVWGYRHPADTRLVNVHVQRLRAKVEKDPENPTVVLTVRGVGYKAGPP
Description: EMSA. As to conditions: phosphorylated by EnvZ; 50 mM Tris-HCl pH 7.5, 50 mM NaCl, 10 mM MgCl2, 10 mM CaCl2, poly dI/dC and sheared salmon sperm DNA (1 ug), 37 C 15 min; 200 fmol DNA, 1-10 uM protein; 5% PAGE; recombinant protein; protein details: MBP fusion; label: FAM; probe letters rebuilt from the primers and the genome; part of a longer molecule.

Series [2] addresses T2, MtrA (unphosphorylated) (UniProt P9WGM7).
T2 sequence: T1 sequence
As to the kind of experiment: EMSA. The settings on record: unphosphorylated; 50 mM Tris-HCl pH 7.5, 50 mM NaCl, 10 mM MgCl2, 10 mM CaCl2, […]; recombinant protein; protein details: MBP fusion; label: FAM; probe letters rebuilt from the primers and the genome; part of a longer molecule.

Construct, isoform or probe ends are uncertain for at least one entry.

With “TGGTTCGTTATCTATCCGTTGTGGTCGCGATCACGCTGATGCTCACCGCGGAATCAGTCAGCATAGCGACCGCCGCGGTCCCGCCACTCCAACCGATCCCAGGCGTTGCGTCGGTGTCGCCGGCTAATGGTGCCGTGGTGGGGGTGGCGCACCCGGTGGTGGTGACATTCACCACGCCCGTGACCGATCGCCGCGCCGTCGAGCGGTCCATCCGCATCAGCACACCGCACAACACGACCGGACACTTCGAGTGGGTCGCTAGCAATGTCGTGCGGTGGGTGCCCCACCGGTATTGGCCACCTCACACCCGTGTCTCGGTGG (double strand) [PoxyS]”, the binding result in series [1] was “binds”.
Take “GTAGCCGTGGTGCAACTACCGTCCATCCTGTCACACCAGACTCGGCGGTTGCCGATTGGACTAAGTAAATAAGGACCAATTTCAAACTCTAAGACCAAATAAATCACAATCCTTAGATTTGAAATCGTGCGCGCCAAACTTGTCCCCAAATCGTGGCCGAACCGTCTCTCAA (double strand) [Pwag31]”: the binding result in series [1] was “binds”.
For “GTCGGTGCGGCATCACTTTCGGGATTCGGTATCCGACACCATGCGTATTACCGATCTGGCTGCCCCTAGAAAGATTCCCCCGGGAACCGGTTGGCGGAAATTCGTCTATTCCGTTTCATTTCACAAAATTAATCCAGGTGAATCGCCCCGGGAACGGCACTACCGCAATTTACAGGGACGTATCCGTCGGCATATCCGTCGGCAATATGTCATCACGGTTGTGTCCGGCAAGGGCGGCGTGGGGGTCACCACGATGGCCGCGTGCATCGGCGGCG (double strand) [Prv3887c]”, the binding result in series [1] and in series [2] was “binds” throughout.
Take “AGTGGCGTCACCGATGACTACCGTCAAGGATAGACGCTAGGGGCGCTGCCGAATTTCCGTCAATAGGCGTCCGTTGGCGTGCAATATCGGACCGTTGCGTGAGAATTAACTCTGCGTTCATCTGCGCCGCATTCGCCGCCTGCGCCGCATGCTATCCCGGGCGGATAGATGAGGTATTTGCCCAGGTCATCCCATGCTGTGAGTACGCCTAAATTAGCGCAAAGAAAGCTGTGAGTAATATGCCGTTAACGAAGAA (double strand) [PsigD]”: the binding result in series [1] is given as “binds”.
